Experimental findings from PMC11900278, “Expression, Characterization and Selective Chemical Inhibition of Essential Schistosoma mansoni Tegumental Acetylcholinesterase (SmTAChE)” (2025) are described below.

The chains behind the UniProt entries cited, without tags or fusion partners. Residues count along the entry.
UniProt A0A3Q0KMM5, 27-661 limits assumed: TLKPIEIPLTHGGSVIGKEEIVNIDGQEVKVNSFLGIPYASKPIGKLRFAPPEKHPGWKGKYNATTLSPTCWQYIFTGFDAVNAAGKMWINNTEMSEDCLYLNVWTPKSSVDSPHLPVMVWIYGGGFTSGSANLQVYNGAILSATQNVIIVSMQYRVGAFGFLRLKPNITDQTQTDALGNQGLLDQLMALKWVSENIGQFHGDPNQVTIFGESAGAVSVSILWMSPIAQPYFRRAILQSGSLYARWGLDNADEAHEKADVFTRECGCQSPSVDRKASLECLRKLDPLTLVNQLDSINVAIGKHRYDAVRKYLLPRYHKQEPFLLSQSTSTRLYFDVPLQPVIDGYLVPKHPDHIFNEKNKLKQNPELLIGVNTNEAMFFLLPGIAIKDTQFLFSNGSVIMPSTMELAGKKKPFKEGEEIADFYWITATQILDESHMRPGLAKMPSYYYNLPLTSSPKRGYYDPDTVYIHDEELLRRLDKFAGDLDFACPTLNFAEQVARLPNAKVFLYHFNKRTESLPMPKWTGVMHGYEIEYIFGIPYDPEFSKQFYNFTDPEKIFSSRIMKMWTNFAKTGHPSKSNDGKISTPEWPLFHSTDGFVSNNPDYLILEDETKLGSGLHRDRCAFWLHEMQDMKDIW
UniProt A0A3Q0KMM5, 26-668 limits assumed: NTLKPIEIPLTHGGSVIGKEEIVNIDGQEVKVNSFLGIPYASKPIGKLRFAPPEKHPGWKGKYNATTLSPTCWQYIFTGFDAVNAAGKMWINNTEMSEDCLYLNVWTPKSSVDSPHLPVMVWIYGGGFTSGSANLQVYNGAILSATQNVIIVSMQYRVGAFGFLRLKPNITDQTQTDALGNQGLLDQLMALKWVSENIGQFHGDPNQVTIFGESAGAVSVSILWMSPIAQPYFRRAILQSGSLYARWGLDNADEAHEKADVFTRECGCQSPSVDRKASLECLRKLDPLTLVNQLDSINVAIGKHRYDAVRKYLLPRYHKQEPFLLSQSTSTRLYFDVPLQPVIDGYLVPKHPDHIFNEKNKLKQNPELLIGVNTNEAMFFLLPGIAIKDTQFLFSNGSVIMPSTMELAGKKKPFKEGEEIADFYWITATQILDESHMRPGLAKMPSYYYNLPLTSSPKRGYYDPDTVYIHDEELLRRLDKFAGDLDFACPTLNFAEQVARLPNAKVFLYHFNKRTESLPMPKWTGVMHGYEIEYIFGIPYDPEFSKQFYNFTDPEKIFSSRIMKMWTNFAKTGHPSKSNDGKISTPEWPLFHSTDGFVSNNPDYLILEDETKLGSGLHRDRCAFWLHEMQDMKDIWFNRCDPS

In assay [1] the target is rSmTAChE (Schistosoma mansoni, UniProt A0A3Q0KMM5). In words: IC50 determination with rSmTAChE (Ellman, 384-well). Particulars: tested form: dibromide.
Assay [2] addresses tegumental AChE activity in live schistosomula parasites (Schistosoma mansoni, UniProt A0A3Q0KMM5). As to the kind of experiment: Inhibitor impact on tegumental AChE activity of live schistosomula. Particulars: read-out: IC50 Schistosomula, tested form: dibromide.

The structures appear in SMILES notation.

`C=CC[N+](C)(C)c1ccc(CCC(=O)CCc2ccc([N+](C)(C)CC=C)cc2)cc1`: the “inhibition of rSmTAChE (in words)” value in assay [1] (increasing concentrations of inhibitor) was “selective inhibition”. For the same compound, the 50% inhibitory concentration (IC50) (as a rule, the midpoint of a concentration-inhibition curve) in assay [1] (read-out: IC50 rSmTAChE, rSmTAChE) amounted to 101 µM; in assay [2], 32 µM.
